Measured values from several laboratories, pooled; numbers as filed in NIAID ChemDB.

All rows: enzyme or target tests

Blank or dashed fields: not listed here.

compound,dose,measure,species,method,mutations,strain,protein,result
CO[P@](=O)(c1cc(C)cc(/C=C/C#N)c1)c1c(C(N)=O)[nH]c2ccc(Cl)c(F)c12,-,IC50,HIV,-,E138K,-,Reverse transcriptase,4.67 µM
Cn1c2ccccc2c2c3c(c4c5ccccc5n(CC(F)F)c4c21)CNC3=O,-,IC50,-,-,-,-,Protein kinase C,0.032 µM
CN[C@@H]1[C@H](O[C@@H]2OC[C@@H](O)[C@H](O)[C@H]2O)[C@@H](O)[C@H](O[C@H]2c3cc(C)c(C(=O)N[C@H](C)C(=O)O)c(O)c3-c3c(cc4c(c3O)C(=O)c3cc(OC)cc(O)c3C4=O)[C@@H]2O)O[C@@H]1C,-,IC50,Actinomadura verrucosospora,-,-,-,Glucosidase,>100 µg/mL
CC(=O)OC1C=COC=C2C[C@@H]3C(=O)N4C5C(=COC=CC5OC(C)=O)C[C@H]4C(=O)N3C21,-,IC50,Coxsackie virus,-,-,TYPE A21,RNA polymerase,20 µg/mL
COc1cc(O)c2c(c1)C(=O)c1c(O)c3c(c(OC)c1C2=O)[C@H](O)[C@@H](O)c1cc(C)c(C(=O)N[C@H](C)C(=O)O)c(O)c1-3,-,IC50,Actinomadura verrucosospora,-,-,-,Glucosidase,62 µg/mL
NC(=O)c1ncn([C@@H]2O[C@H](CO)[C@@H](O)[C@H]2O)n1,500 µM,inhibition,Simian rotavirus,-,-,-,RNA polymerase,9%
O=C1NCc2c1c1c3ccccc3[nH]c1c1[nH]c3ccccc3c21,-,IC50,-,-,-,-,cGMP-dependent kinase,7 µM
COc1cc(CN(C)c2ccc3nc(N)nc(N)c3c2Cl)cc(OC)c1OC,-,IC50,Cryptosporidium parvum,-,-,-,Dihydrofolate reductase,0.81 µM
C[C@@H]1CCC2=C(CCCC2(C)C)[C@@]1(C)CC[C@H](CCCc1ccoc1)COS(=O)(=O)[O-],-,IC50,Candida albicans,-,-,ATCC 10231,Isocitrate lyase,16.9 µg/mL
CN1C(=O)[C@]23CC4=CC=C[C@H](O)[C@H]4N2C(=O)[C@@]1(CO)SS3,-,IC50,Coxsackie virus,-,-,TYPE A21,RNA polymerase,0.003 µg/mL
CN1C(=O)[C@]23CC4=CC=C[C@H](O)[C@H]4N2C(=O)[C@@]1(CO)S3,-,IC50,Coxsackie virus,-,-,TYPE A21,RNA polymerase,0.002 µg/mL
CC(O)CN1CNc2c1c(=O)n(C)c(=O)n2C,900 µM,inhibition,Toxoplasma gondii,-,-,RH,Phosphoribosyltransferase,<10%
c1cncnc1,2000 µM,inhibition,Toxoplasma gondii,-,-,RH,Uracil phosphoribosyltransferase,<5%
N#Cc1ccc(C(=O)Nc2nnc(NC3CCCCCC3)s2)cc1,-,IC50,Human cytomegalovirus,-,-,-,Polymerase,<25 µM
O=c1[nH]cc(Cl)c(=O)[nH]1,-,IC50,Toxoplasma gondii,-,-,RH,Uracil phosphoribosyltransferase,>2000 µM
CC1=CC[C@H]2C(C)(C)CCC[C@]2(C)[C@H]1C/C(OS(=O)(=O)[O-])=C(\C)CCC/C(C)=C/Cc1cc(O)ccc1O.[Na+],-,IC50,Candida albicans,-,-,ATCC 10231,Isocitrate lyase,53.5 µg/mL
CC1=CC(=O)c2ccccc2C1=O,40 µM,inhibition,Mycobacterium tuberculosis,-,-,-,NADH dehydrogenase,29%
C[n+]1cc2nccnc2[n+](C)c1,-,IC50,Toxoplasma gondii,-,-,RH,Phosphoribosyltransferase,>900 µM
O=C(c1ccccc1)N1C[C@H](CN2CCC(c3ccccc3)CC2)[C@@H](c2ccccc2)C1,-,IC50,-,radiometric,CCR5-Y251A,-,CCR5,0.11 µM
C1=CN2NC=NC2N=C1,900 µM,inhibition,Toxoplasma gondii,-,-,RH,Phosphoribosyltransferase,<10%
O=C1C=CC(=O)c2ccccc21,40 µM,inhibition,Mycobacterium tuberculosis,-,-,-,NADH dehydrogenase,22%
Nc1nc2cc[nH]c2c(=O)[nH]1,-,Ki,Toxoplasma gondii,-,-,RH,Phosphoribosyltransferase,15 µM
O=C1N2C3C(=COC=CC3O)C[C@]23SSSS[C@]12CC1=COC=CC(O)C1N2C3=O,-,IC50,Coxsackie virus,-,-,TYPE A21,RNA polymerase,0.0001 µg/mL
COc1ccc(OC)c(NCc2ccc3nc(N)nc(N)c3c2Cl)c1,-,IC50,Cryptosporidium parvum,-,-,-,Dihydrofolate reductase,0.29 µM
CS[C@@]12CC3=COC=CC(OC(C)=O)C3N1C(=O)[C@]1(SC)CC3=COC=CC(OC(C)=O)C3N1C2=O,-,IC50,Coxsackie virus,-,-,TYPE A21,RNA polymerase,1 µg/mL
COc1cc(CCc2csc3nc(N)nc(N)c23)c(Br)c(OC)c1OC,-,IC50,Cryptosporidium parvum,-,-,-,Dihydrofolate reductase,>10 µM
O=c1cc(Cc2ccccc2)[nH]c(=O)[nH]1,-,IC50,Toxoplasma gondii,-,-,RH,Uracil phosphoribosyltransferase,>2000 µM
N#CCCn1c2ccc(O)cc2c2c3c(c4c5cc(O)ccc5[nH]c4c21)C(=O)NC3,-,IC50,-,-,-,-,Protein kinase C,0.044 µM
O=c1[nH]c(=O)c2n[nH]nc2[nH]1,-,IC50,Toxoplasma gondii,-,-,RH,Phosphoribosyltransferase,>900 µM
NC(N)=NS(=O)(=O)c1ccc(N)cc1,-,IC50,Pneumocystis carinii,-,-,-,DHPS,3.2 µM
c1ncc2[nH]cnc2n1,900 µM,inhibition,Toxoplasma gondii,-,-,RH,Phosphoribosyltransferase,<10%
CC(=O)N(c1cc(C)on1)S(=O)(=O)c1ccc(N)cc1,-,IC50,Pneumocystis carinii,-,-,-,DHPS,0.02 µM
Nc1[nH]c(=S)[nH]c(=O)c1N=O,-,IC50,Toxoplasma gondii,-,-,RH,Uracil phosphoribosyltransferase,>2000 µM
NC(=S)NS(=O)(=O)c1ccc(N)cc1,-,IC50,Pneumocystis carinii,-,-,-,DHPS,0.022 µM
CC(C)c1cc(C(C)C)c(C(=O)Nc2nnc(NCCN3CCCCC3)s2)c(C(C)C)c1,-,IC50,Human cytomegalovirus,-,-,-,Polymerase,>25 µM
CC(=O)OC1C=COC=C2C[C@@]34NC(=S)S[C@]5(CC6=COC=CC(OC(C)=O)C6N5C3=O)C(=O)N4C21,-,IC50,Coxsackie virus,-,-,TYPE A21,RNA polymerase,3 µg/mL
Nc1ccnc(=O)[nH]1,-,Ki,Toxoplasma gondii,-,-,RH,Phosphoribosyltransferase,286 µM
O=C1CCNC(=O)N1,2000 µM,inhibition,Toxoplasma gondii,-,-,RH,Uracil phosphoribosyltransferase,<5%
O=C(Nc1nnc(NCc2cccc3ccccc23)s1)c1cc2ccccc2s1,-,IC50,Human cytomegalovirus,-,-,-,Polymerase,>25 µM
Nc1nc(N)c2c(n1)CCC(Cc1cccc(C(F)(F)F)c1)C2,-,IC50,Cryptosporidium parvum,-,-,-,Dihydrofolate reductase,3.84 µM
COC(=O)c1cc(=O)[nH]c(=O)[nH]1,-,IC50,Toxoplasma gondii,-,-,RH,Uracil phosphoribosyltransferase,>2000 µM
Cc1cc2c(c(O)c1C(=O)O)-c1c(O)c3c(c(O)c1C[C@H]2O)C(=O)c1c(O)cc(O)cc1C3=O,-,IC50,Actinomadura verrucosospora,-,-,-,Glucosidase,3 µg/mL
O=C(O)c1ccc(NC(=S)Nc2ccc(S(=O)(=O)Nc3ccccn3)cc2)cc1,-,IC50,Pneumocystis carinii,-,-,-,DHPS,5.9 µM
O=C(/C=C/c1ccccc1)Nc1nnc(NC2CCCCCC2)s1,-,IC50,Human cytomegalovirus,-,-,-,Polymerase,>25 µM
CCn1cnc2c(N)ncnc21,-,IC50,Toxoplasma gondii,-,-,RH,Phosphoribosyltransferase,>900 µM
Cc1cc(=O)[nH]c(=O)[nH]1,2000 µM,inhibition,Toxoplasma gondii,-,-,RH,Uracil phosphoribosyltransferase,<5%
O=C1C=CN([C@@H]2O[C@H](CO)[C@@H](O)[C@H]2O)C(=O)C1,500 µM,inhibition,Simian rotavirus,-,-,-,RNA polymerase,7%
CC(=O)OC1C=COC=C2C[C@@]3(SC(C)=O)C(=O)N4C5C(=COC=CC5OC(C)=O)C[C@@]4(SC(C)=O)C(=O)N3C21,-,IC50,Coxsackie virus,-,-,TYPE A21,RNA polymerase,0.09 µg/mL
CN1CCN(CCCNc2nnc(NC(=O)/C=C/c3ccccc3Cl)s2)CC1,-,IC50,Human cytomegalovirus,-,-,-,Polymerase,>25 µM
COc1cc(Cc2cnc(N)nc2N)cc(OC)c1OCCCNc1ccc(S(=O)(=O)c2ccc(N)cc2)cc1,-,IC50,Candida albicans,-,-,-,Dihydrofolate reductase,0.29 µM
COC1=C(OC)C(=O)C(CCC=C(C)C)=CC1=O,40 µM,inhibition,Mycobacterium tuberculosis,-,-,-,NADH dehydrogenase,44%
Cc1ncncc1NS(=O)(=O)c1ccc(N)cc1,-,IC50,Pneumocystis carinii,-,-,-,DHPS,2.7 µM
CCOC(=O)OC1C=COC=C2C[C@@]34SS[C@]5(CC6=COC=CC(O)C6N5C3=O)C(=O)N4C21,-,IC50,Coxsackie virus,-,-,TYPE A21,RNA polymerase,0.0002 µg/mL
Nc1nc(=S)c2[nH]cnc2[nH]1,-,Ki,Toxoplasma gondii,-,-,RH,Phosphoribosyltransferase,6 µM
CC(=O)OC1C=COC=C2C[C@@]3(O)C(=O)N4C5C(=COC=CC5OC(C)=O)C[C@@]4(S)C(=O)N3C21,-,IC50,Coxsackie virus,-,-,TYPE A21,RNA polymerase,121 µg/mL
O=c1[nH]cc([N+](=O)[O-])c(=O)[nH]1,2000 µM,inhibition,Toxoplasma gondii,-,-,RH,Uracil phosphoribosyltransferase,<5%

5 of the rows above, restated:

compound | dose | measure | species | method | mutations | strain | protein | result
C[C@@H]1CCC2=C(CCCC2(C)C)[C@@]1(C)CC[C@H](CCCc1ccoc1)COS(=O)(=O)[O-] | - | IC50 | Candida albicans | - | - | ATCC 10231 | Isocitrate lyase | 16.9 µg/mL
CN[C@@H]1[C@H](O[C@@H]2OC[C@@H](O)[C@H](O)[C@H]2O)[C@@H](O)[C@H](O[C@H]2c3cc(C)c(C(=O)N[C@H](C)C(=O)O)c(O)c3-c3c(cc4c(c3O)C(=O)c3cc(OC)cc(O)c3C4=O)[C@@H]2O)O[C@@H]1C | - | IC50 | Actinomadura verrucosospora | - | - | - | Glucosidase | >100 µg/mL
CS[C@@]12CC3=COC=CC(OC(C)=O)C3N1C(=O)[C@]1(SC)CC3=COC=CC(OC(C)=O)C3N1C2=O | - | IC50 | Coxsackie virus | - | - | TYPE A21 | RNA polymerase | 1 µg/mL
COc1cc(O)c2c(c1)C(=O)c1c(O)c3c(c(OC)c1C2=O)[C@H](O)[C@@H](O)c1cc(C)c(C(=O)N[C@H](C)C(=O)O)c(O)c1-3 | - | IC50 | Actinomadura verrucosospora | - | - | - | Glucosidase | 62 µg/mL
O=C1C=CN([C@@H]2O[C@H](CO)[C@@H](O)[C@H]2O)C(=O)C1 | 500 µM | inhibition | Simian rotavirus | - | - | - | RNA polymerase | 7%

Percent inhibition refers to the dose given; in toxicity tests it is the harm to the cells. ICn: concentration for n% inhibition. Lines come from different laboratories, so protocols vary.